Measured values from several laboratories, pooled; numbers as filed in NIAID ChemDB.

Common to all: tests in culture

Percent inhibition refers to the dose given; in toxicity tests it is the harm to the cells.

structure,endpoint,dose,cell line,organism,strain,method,value
Cc1cn(C(CF)CCCO)c(=O)[nH]c1=O,EC50,,VERO,Tacaribe virus,,cytopathic effect,>200 µg/mL
O=C(Nc1ccncc1)Nc1cc(C(F)(F)F)cc(C(F)(F)F)c1,MIC,,,Escherichia coli,ES142,,>300 µM
CC1(C)CC(=O)C2=C(C1)Nc1c(O)cccc1N(C(=O)c1csc(-c3ccccc3)n1)C2c1ccc(OCc2ccccc2)cc1F,EC50,,,Hepatitis C virus,1b,luciferase / reporter gene / replicon,3.88 µM
CCOC(=O)c1c(C)nc(NCCCNc2ccnc3cc(Cl)ccc23)nc1-c1ccccc1,MIC99,,,Cryptococcus neoformans,ATCC 62066,,8 µg/mL
Nc1nc2c(ncn2CCCC(O)CF)c(=O)[nH]1,EC50,,VERO,Tacaribe virus,,cytopathic effect,>200 µg/mL
CC(N)CC(C(=O)Nc1cc(C(F)(F)F)cc(C(F)(F)F)c1)C(=O)Nc1cc(C(F)(F)F)cc(C(F)(F)F)c1,MIC,,,Klebsiella pneumoniae,KL21,,>300 µM
N=C(N)c1ccc(N2CCN(c3ccccc3)CC2)cc1,inhibition,10 µg/mL,,Pneumocystis carinii,,,80%
CCOC(=O)c1ccc(OCCC2CCN(c3ccc(C)nn3)CC2)cc1,EC50,,KB,Rhinovirus,A2#58 (ICAM-1 receptor group 50),neutral red,0.027 µM
O=C(CC(=O)Nc1cccc(C(F)(F)F)c1)Nc1cccc(C(F)(F)F)c1,MIC,,,Escherichia coli,ES142,,>300 µM
CCC(CC)N=C(N)c1ccc(N2CCN(c3ccccc3)CC2)cc1,inhibition,0.1 µg/mL,,Pneumocystis carinii,,,43%
CN(NC(=O)Nc1cc(C(F)(F)F)cc(C(F)(F)F)c1)C(=O)Nc1cc(C(F)(F)F)cc(C(F)(F)F)c1,MIC,,,Escherichia coli,ES142,,>300 µM
CCC(C)CN=C(N)c1ccc(N2CCN(c3ccccc3)CC2)cc1,inhibition,10 µg/mL,,Pneumocystis carinii,,,92%
CC(=O)N1c2cccc(O)c2NC2=C(C(=O)CC(C)(C)C2)C1c1ccc(OCc2ccccc2)cc1F,EC50,,,Hepatitis C virus,1b,luciferase / reporter gene / replicon,1.08 µM
CCOC(=O)c1cc(C#N)c2[nH]c3ccccc3n2c1=O,EC50,,HEP-2,Respiratory syncytial virus,FM-58-8,plaque count,28.3 µg/mL
Nc1nc2c(ncn2C=C2CC2CO)c(=O)[nH]1,EC90,,,Human cytomegalovirus,VR4991 (ganciclovir-resistant),plaque count,4.7 µM
O=C(NCCO)NNC(=O)Nc1cc(C(F)(F)F)cc(C(F)(F)F)c1,MIC,,,Escherichia coli,ES142,,>300 µM
Nc1nc2c(ncn2CCC(CO)CO)c(=O)[nH]1,EC50,,RK-13,Equine herpesvirus 1,QUAI HAIS,plaque count,1.6 µg/mL
CCc1ccc(C(=O)NC(=O)c2cc(Cl)ccc2O)cc1,MIC50,,Human foreskin fibroblasts,Toxoplasma gondii,,,>0.25 µM
CCCN=C(N)c1ccc(N2CCN(c3ccccc3)CC2)cc1,inhibition,0.1 µg/mL,,Pneumocystis carinii,,,48%
N#Cc1cc(C#N)c2[nH]c3ccccc3n2c1=O,EC50,,HEP-2,Respiratory syncytial virus,LONG,plaque count,1.51 µg/mL
Nc1ccn(C(CF)CCCO)c(=O)n1,EC50,,VERO,Tacaribe virus,,cytopathic effect,>50 µg/mL
NC(=NCc1ccc(F)cc1)c1ccc(N2CCN(c3ccccc3)CC2)cc1,inhibition,50 µg/mL,,Pneumocystis carinii,,,73%
OC[C@H]1O[C@@H](n2c(Cl)nc3cc(Cl)c(Cl)cc32)[C@H](O)[C@@H]1O,EC95,,,Human cytomegalovirus,D10 (D341E),virus yield,7.9 µM
COC(=O)CCCCCCC(=O)Nc1ccc(C(=O)NC(=O)c2ccccc2O)cc1,MIC50,,Human foreskin fibroblasts,Toxoplasma gondii,,,>1 µM
CC1(C)N=C(N)N=C(N)N1OCCCOc1cc(Cl)c(Cl)cc1Cl,MIC,,,Mycobacterium avium complex,GRE,,2 µg/mL
C=CCc1ccc(OC)c(OC)c1,MIC90,,,Candida glabrata,2994,turbidity,340 µg/mL
O[C@@H]1[C@H](O)[C@H](O)CO[C@H]1n1c(Br)nc2cc(Cl)c(Cl)cc21,EC50,,HFF,Rat cytomegalovirus,,plaque count,28.2 µM
CCOC(=O)c1c(C)nc(NCCCCNc2ccnc3cc(Cl)ccc23)nc1-c1ccccc1[N+](=O)[O-],MIC99,,,Cryptococcus neoformans,96806,,45.3 µg/mL
CCCCCCN=C(N)c1ccc(N2CCN(c3ccccc3)CC2)cc1,inhibition,10 µg/mL,,Pneumocystis carinii,,,96%
Cc1nc(NCCCCNc2ccnc3cc(Cl)ccc23)nc(-c2ccccc2[N+](=O)[O-])c1C(=O)OC(C)C,MIC99,,,Cryptococcus gattii,547/OTTI-97-PI-10,,16 µg/mL
COc1cc(O)c2c(=O)cc(-c3ccccc3)oc2c1CC=C(C)C,inhibition,25 µM,LLC-MK2,Dengue virus,Type 2/Mexican isolate,plaque count,76.9%
O=C(NNc1ccccn1)Nc1cc(C(F)(F)F)cc(C(F)(F)F)c1,MIC,,,Klebsiella pneumoniae,KL21,,>300 µM
CCc1ccc(C(=O)N(C)C(=O)c2ccccc2O)cc1,MIC50,,Human foreskin fibroblasts,Toxoplasma gondii,,,>1 µM
O=C(Nc1cc(C(F)(F)F)cc(C(F)(F)F)c1)NN(CC(O)CN1CCOCC1)C(=O)Nc1cc(C(F)(F)F)cc(C(F)(F)F)c1,MIC,,,Escherichia coli,ES142,,>300 µM
O=C(NC(=O)C1CCCCC1)c1ccccc1O,MIC50,,Human foreskin fibroblasts,Toxoplasma gondii,,,>0.25 µM
CCOC(=O)C(C#N)CC/C(=C/CCc1ccc2c(c1)OCO2)CC,MIC,,,Equine herpesvirus 4,,,>50 µg/mL
CN=C(N)c1ccc(N2CCN(c3ccccc3)CC2)cc1,inhibition,0.1 µg/mL,,Pneumocystis carinii,,,42%
Oc1ccccc1N=Cc1ccc2c(c1)OCO2,MIC99,,,Cryptococcus gattii,547/OTTI-97-PI-10,,16 µg/mL
CC(=O)N1c2cccc(O)c2NC2=C(C(=O)CC(C)(C)C2)C1c1c(Cl)nc2sccn12,EC50,,,Hepatitis C virus,1b,luciferase / reporter gene / replicon,>10 µM
CN[C@H]1C[C@@H](n2cnc3c(N)ncnc32)[C@H](O)[C@@H]1O,EC50,,HFF,West Nile virus,,,>100 µg/mL
NC(=NCc1ccccc1)c1ccc(N2CCN(c3ccccc3)CC2)cc1,inhibition,0.1 µg/mL,,Pneumocystis carinii,,,0%
CCc1ccc(C(=O)Nc2cn(C(C)=O)c3ccccc23)cc1,MIC50,,Human foreskin fibroblasts,Toxoplasma gondii,,,>0.125 µM
CCC(=O)C(CC/C=C/CCc1ccc(S(N)(=O)=O)cc1)C(=O)CC,MIC,,,Equine herpesvirus 4,,,>50 µg/mL
Nc1nc2c(ncn2COC(CO)CO)c(=O)[nH]1,EC50,,HFF,Rat cytomegalovirus,,plaque count,31 µM
N#Cc1cc(NC(=O)c2ccccc2)c(=O)n2c1[nH]c1ccccc12,EC50,,HEP-2,Respiratory syncytial virus,LONG,plaque count,0.1 µg/mL
CCC(=O)C(CCCc1ccc(O)cc1)C(=O)CC,MIC,,,Equine herpesvirus 4,,,>50 µg/mL
CC(C)Nc1nc2cc(Cl)c(Cl)cc2n1[C@H]1O[C@@H](CO)[C@H](O)[C@@H]1O,EC50,,HFF,Rhesus cytomegalovirus,,plaque count,48 µM
CC1(C)CC(=O)C2=C(C1)Nc1c(O)cccc1N(C(=O)CC#N)C2c1ccc(Oc2ccccc2Br)cc1Cl,EC50,,,Hepatitis C virus,1b,luciferase / reporter gene / replicon,13.54 µM
COc1c(N2CCNC(C)C2)c(F)cc2c(=O)c(C(=O)O)cn(C3CC3)c12,MIC90,,,Streptococcus pyogenes,41 strains,,0.5 µg/mL
N#Cc1cc(C(=O)O)c(=O)n2c1[nH]c1ccccc12,EC50,,HEP-2,Respiratory syncytial virus,LONG,plaque count,>40 µg/mL
CCN(CC)c1ccc(C(=O)NS(=O)(=O)c2ccccc2OC)cc1,MIC50,,Human foreskin fibroblasts,Toxoplasma gondii,,,>0.25 µM
CC/C(=C\CCc1ccc2c(c1)OCO2)CCC1CCCCC1=O,MIC,,,Equine herpesvirus 4,,,>50 µg/mL
CC(C)CCN=C(N)c1ccc(N2CCN(c3ccccc3)CC2)cc1,inhibition,50 µg/mL,,Pneumocystis carinii,,,96%

Repeating the final 5 entries:

| structure | endpoint | dose | cell line | organism | strain | method | value |
|---|---|---|---|---|---|---|---|
| COc1c(N2CCNC(C)C2)c(F)cc2c(=O)c(C(=O)O)cn(C3CC3)c12 | MIC90 |  |  | Streptococcus pyogenes | 41 strains |  | 0.5 µg/mL |
| N#Cc1cc(C(=O)O)c(=O)n2c1[nH]c1ccccc12 | EC50 |  | HEP-2 | Respiratory syncytial virus | LONG | plaque count | >40 µg/mL |
| CCN(CC)c1ccc(C(=O)NS(=O)(=O)c2ccccc2OC)cc1 | MIC50 |  | Human foreskin fibroblasts | Toxoplasma gondii |  |  | >0.25 µM |
| CC/C(=C\CCc1ccc2c(c1)OCO2)CCC1CCCCC1=O | MIC |  |  | Equine herpesvirus 4 |  |  | >50 µg/mL |
| CC(C)CCN=C(N)c1ccc(N2CCN(c3ccccc3)CC2)cc1 | inhibition | 50 µg/mL |  | Pneumocystis carinii |  |  | 96% |

Blank or dashed fields: not listed here. MIC50, MIC90 and the like: level of inhibition, or share of isolates inhibited. ECn: concentration that inhibits the pathogen or its effect by n%. Conditions beyond the fields shown may differ between rows.